How the values were obtained:
B. bigemina = assay: Growth inhibitory fluorescence assay in vitro, B. bigemina; assay type: cell-based, Babesia bigemina
Method: (§1) Texas strain of B. bovis and Argentina strain of B. bigemina were grown using bovine red blood cells (RBCs, collected from cattle farm of Obihiro University of Agriculture and Veterinary Medicine and stored at 4°C) in medium 199 (M199; Sigma-Aldrich, Tokyo, Japan) supplemented with 40% bovine serum, while RPMI 1640 medium (Sigma-Aldrich, Tokyo, Japan) was used for B. divergens (German strain) cultivation. The United States Department of Agriculture (USDA) strain of T. equi was grown in equine RBCs (collected from horse farm of Obihiro University of Agriculture and Veterinary Medicine and stored at 4°C) in M199 supplemented with 40% equine serum, and hypoxanthine (MP Biomedicals, Santa Ana, CA, USA) at a final concentration of 13.6 μg/ml was used as a vital supplement, while GIT medium was used for B. caballi (USDA strain) cultivation. Sixty μg/ml of streptomycin, 0.15 μg/ml of amphotericin B, and 60 U/ml of penicillin G (Sigma-Aldrich, Tokyo, Japan) were added to all media to prevent fungal and bacterial contamination. […]
(§2) The inhibition assay was conducted according to the previously described protocol. […] Afterward, the fluorescence was measured using a fluorescence spectrophotometer (Fluoroskan Ascent, Thermo Fisher Scientific, USA) at 485 nm excitation and 518 nm emission wavelengths. The relative fluorescence value was set to percentages after subtracting the mean values of the negative control. […]
(§3) The IC50 values of CRY, DA, CF, and AQ were determined using the nonlinear regression curve fit in GraphPad Prism (GraphPad Software Inc., San Diego, CA, USA). Combination index (CI) values for the drug combination were calculated using CompuSyn software, and the degree of synergism was determined as the weighted average of CI values using a formula [(1 x IC50) + (2 x IC75) + (3 x IC90) + (4 x IC95)]/10 [30]. The differences in parasitemia and hematology profiles in the B. microti–infected mice were analyzed using an independent Student’s t-test and one-way ANOVA test using GraphPad Prism version 5.0 for Windows (GraphPad Software Inc., San Diego, CA, USA). […]

B. divergens = assay: Growth inhibitory fluorescence assay in vitro, B. divergens; assay type: cell-based, Babesia divergens
Method: as §1, §2, §3

B. caballi = assay: Growth inhibitory fluorescence assay in vitro, B. caballi; assay type: cell-based, Babesia caballi
Method: as §1, §2, §3

B. bovis = assay: Growth inhibitory fluorescence assay in vitro, B. bovis; assay type: cell-based, Babesia bovis
Method: as §1, §2, §3

T. equi = assay: Growth inhibitory fluorescence assay in vitro, T. equi; assay type: cell-based, Theileria equi
Method: as §1, §2, §3

CC(=O)NCC(=O)O.CC(=O)NCC(=O)O.N=C(N)c1ccc(N=NNc2ccc(C(=N)N)cc2)cc1 [DA, diminazene aceturate]
Selective index HFF (B. bigemina; EC50 HFF / IC50 B. bigemina): ˃ 147.1
Selective index MDBK (B. bigemina; EC50 MDBK / IC50 B. bigemina): ˃ 147.1
Selective index NIH/3T3 (B. bigemina; EC50 NIH/3T3 / IC50 B. bigemina): ˃ 147.1
Selective index HFF (B. divergens; EC50 HFF / IC50 B. divergens): ˃ 232.5
Selective index MDBK (B. divergens; EC50 MDBK / IC50 B. divergens): ˃ 232.5
Selective index NIH/3T3 (B. divergens; EC50 NIH/3T3 / IC50 B. divergens): ˃ 232.5
Selective index HFF (B. caballi; EC50 HFF / IC50 B. caballi): ˃ 5000
Selective index MDBK (B. caballi; EC50 MDBK / IC50 B. caballi): ˃ 5000
Selective index NIH/3T3 (B. caballi; EC50 NIH/3T3 / IC50 B. caballi): ˃ 5000
Selective index HFF (B. bovis; EC50 HFF / IC50 B. bovis): ˃ 285.7
Selective index MDBK (B. bovis; EC50 MDBK / IC50 B. bovis): ˃ 285.7
Selective index NIH/3T3 (B. bovis; EC50 NIH/3T3 / IC50 B. bovis): ˃ 285.7
Selective index HFF (T. equi; EC50 HFF / IC50 T. equi): ˃ 140.8
Selective index MDBK (T. equi; EC50 MDBK / IC50 T. equi): ˃ 140.8
Selective index NIH/3T3 (T. equi; EC50 NIH/3T3 / IC50 T. equi): ˃ 140.8

From article PMC7451656, “In vitro and in vivo growth inhibitory activities of cryptolepine hydrate against several Babesia species and Theileria equi” (PLoS Neglected Tropical Diseases, 2020)
